Tested on: TC-3 cell cultures
Assay: Cellular import and intracellular persistence of fluorescein-labeled peptides in TC-3 cells
Type: cell-based
Settings: time course study
Method: The ability of the L- and D-enantiomeric forms of TAT and TAT-IB1(s) peptides (“TAT-IB peptides”) to enter cells was evaluated. L-TAT, D-TAT, L-TAT-IB1(s), and D-TAT-IB1(s) peptides [SEQ ID NOs: 5, 6, 9 and 12, respectively] were labeled by N-terminal addition of a glycine residue conjugated to fluorescein. Labeled peptides (1 μM) were added to TC-3 cell cultures, which were maintained as described in Example 3. At predetermined times cells were washed with PBS and fixed for five minutes in ice-cold methanol-acetone (1:1) before being examined under a fluorescence microscope. Fluorescein-labeled BSA (1 μM, 12 moles/mole BSA) was used as a control.
Little to no signal was present at 48 hours.

| Substance | stability inside the cells |
| --- | --- |
| H-DQSRPVQPFLNLTTPRKPRPPRRRQRRKKRG-OH [XG-102] | extremely stable inside the cells |
| H-RRRQRRKKRG-OH | extremely stable inside the cells |
